Values quoted from earlier work as cited in paper PMC10856564, “Metabolites from Streptomyces aureus (VTCC43181) and Their Inhibition of Mycobacterium tuberculosis ClpC1 Protein” (Molecules, 2024).

System: ClpC1
Conditions: cited from earlier work

Row | Substance | inhibition of ClpC1 through ATP hydrolysis function
1 | ecumicin | reported to inhibit ClpC1 through the effection of ATP hydrolysis function
2 | rufomycin | reported to inhibit ClpC1 through the effection of ATP hydrolysis function
